Laboratory results from patent publication US20260384408A1, “SUBSTITUTED BENZODIAZEPINES AS FUNGICIDES” (published 2026).

Experiments:
Cercospora beticula = settings: 31 ppm; relative to compound-free control (100%)
Botrytis cinerea [1] = experiment: Preventative fungicidal control of Botrytis cinerea on leaves of green pepper (greenhouse); settings: inoculated next day, assessed after 5 days, untreated 90% infected
Cercospora zeae maydis = settings: 31 ppm; relative to compound-free control (100%)
Alternaria solani = settings: 31 ppm; relative to compound-free control (100%)
Pyricularia oryzae = settings: 31 ppm; relative to compound-free control (100%)
Sclerotinia sclerotiorum = experiment: Preventative fungicidal control of white mold on cabbage caused by Sclerotinia sclerotiorum (greenhouse); settings: 125 ppm, 8 days, untreated 80% infected
Botrytis cinerea [2] = experiment: Long lasting control of Botrytis cinerea on leaves of green pepper (greenhouse); settings: 63 ppm, inoculated 7 days after spraying, assessed after 5 days, untreated 90% infected

## CCCN1c2c(F)cccc2C(c2cnc(C(F)F)c(C)c2)=N[C@@H](C)[C@@H]1C (racemic)
Cercospora beticula
  growth of the pathogen (relative growth): up to 18%
Botrytis cinerea [1]; 125 ppm
  growth of the pathogen (% diseased leaf area): at most 22%

## CC#CCN1c2c(F)cccc2C(c2cnc(C(F)F)c(C)c2)=N[C@@H](C)[C@@H]1C (racemic)
Cercospora beticula
  growth of the pathogen (relative growth): up to 18%
Cercospora zeae maydis
  growth of the pathogen (relative growth): up to 17%
Botrytis cinerea [1]; 125 ppm
  growth of the pathogen (% diseased leaf area): at most 22%

## Cc1cc(C2=N[C@@H](C)[C@H](C)N(C)c3c2ccc(Cl)c3F)cnc1C(F)F (racemic)
Alternaria solani
  growth of the pathogen (relative growth): up to 21%
Cercospora zeae maydis
  growth of the pathogen (relative growth): up to 17%
Pyricularia oryzae
  growth of the pathogen (relative growth): up to 22%
Botrytis cinerea [1]; 125 ppm
  growth of the pathogen (% diseased leaf area): at most 22%

## Cc1cc(C2=NCC(C)N(C)c3c(F)cccc32)cnc1C(F)F (stereo not drawn)
Alternaria solani
  growth of the pathogen (relative growth): up to 21%
Cercospora beticula
  growth of the pathogen (relative growth): up to 18%
Pyricularia oryzae
  growth of the pathogen (relative growth): up to 22%
Botrytis cinerea [1]; 125 ppm
  growth of the pathogen (% diseased leaf area): at most 22%
Sclerotinia sclerotiorum
  growth of the pathogen (% diseased leaf area): at most 20%

## Cc1cc(C2=NCC3(CC3)N(C)c3c(F)cccc32)cnc1C(F)F
Alternaria solani
  growth of the pathogen (relative growth): up to 21%
Pyricularia oryzae
  growth of the pathogen (relative growth): up to 22%
Botrytis cinerea [1]; 125 ppm
  growth of the pathogen (% diseased leaf area): at most 22%

## Cc1cc(C2=N[C@@H](C)[C@H](C)N(C)c3c2ccc(Br)c3F)cnc1C(F)F (racemic)
Alternaria solani
  growth of the pathogen (relative growth): up to 21%
Pyricularia oryzae
  growth of the pathogen (relative growth): up to 22%
Botrytis cinerea [1]; 125 ppm
  growth of the pathogen (% diseased leaf area): at most 22%

## C#CCN1c2c(F)cccc2C(c2cnc(C(F)F)c(C)c2)=N[C@@H](C)[C@@H]1C (racemic)
Alternaria solani
  growth of the pathogen (relative growth): up to 21%
Cercospora beticula
  growth of the pathogen (relative growth): up to 18%
Cercospora zeae maydis
  growth of the pathogen (relative growth): up to 17%
Pyricularia oryzae
  growth of the pathogen (relative growth): up to 22%
Botrytis cinerea [1]; 125 ppm
  growth of the pathogen (% diseased leaf area): at most 22%

## Cc1cc(C2=N[C@@H](C)[C@@H](C)N(C)c3c2ccc(Br)c3F)cnc1C(F)F (racemic)
Pyricularia oryzae
  growth of the pathogen (relative growth): up to 22%
Botrytis cinerea [1]; 125 ppm
  growth of the pathogen (% diseased leaf area): at most 22%

## C=C(C)CN1c2c(F)cccc2C(c2cnc(C(F)F)c(C)c2)=N[C@@H](C)[C@H]1C (racemic)
Cercospora beticula
  growth of the pathogen (relative growth): up to 18%
Cercospora zeae maydis
  growth of the pathogen (relative growth): up to 17%
Botrytis cinerea [1]; 125 ppm
  growth of the pathogen (% diseased leaf area): at most 22%
Sclerotinia sclerotiorum
  growth of the pathogen (% diseased leaf area): at most 20%

## COc1ccc2c(c1F)N(C)[C@H](C)[C@H](C)N=C2c1cnc(C(F)F)c(C)c1 (racemic)
Alternaria solani
  growth of the pathogen (relative growth): up to 21%
Pyricularia oryzae
  growth of the pathogen (relative growth): up to 22%
Botrytis cinerea [1]; 125 ppm
  growth of the pathogen (% diseased leaf area): at most 22%

## COC(=O)CN1c2c(F)cccc2C(c2cnc(C(F)F)c(C)c2)=N[C@@H](C)[C@H]1C (racemic)
Botrytis cinerea [1]; 125 ppm
  growth of the pathogen (% diseased leaf area): at most 22%

## CCN1c2c(F)cccc2C(c2cnc(C(F)F)c(C)c2)=N[C@@H](C)[C@@H]1C (racemic)
Cercospora zeae maydis
  growth of the pathogen (relative growth): up to 17%
Botrytis cinerea [1]; 125 ppm
  growth of the pathogen (% diseased leaf area): at most 22%
Sclerotinia sclerotiorum
  growth of the pathogen (% diseased leaf area): at most 20%

## Cc1cc(C2=N[C@@H](C)[C@@H](C)N(C)c3c(Cl)cccc32)cnc1C(F)F (racemic)
Pyricularia oryzae
  growth of the pathogen (relative growth): up to 22%
Botrytis cinerea [1]; 125 ppm
  growth of the pathogen (% diseased leaf area): at most 22%
Sclerotinia sclerotiorum
  growth of the pathogen (% diseased leaf area): at most 20%

## Cc1cc(C2=N[C@H](C)CN(C)c3c(F)cccc32)cnc1C(F)F
Pyricularia oryzae
  growth of the pathogen (relative growth): up to 22%

## CCN1c2c(F)cccc2C(c2cnc(C(F)F)c(C)c2)=N[C@@H](C)[C@H]1C (racemic)
Botrytis cinerea [1]; 125 ppm
  growth of the pathogen (% diseased leaf area): at most 22%

## Cc1cc(C2=N[C@@H](C)[C@@H](C)N(C)c3c(Br)cccc32)cnc1C(F)F (racemic)
Pyricularia oryzae
  growth of the pathogen (relative growth): up to 22%
Botrytis cinerea [1]; 125 ppm
  growth of the pathogen (% diseased leaf area): at most 22%
Sclerotinia sclerotiorum
  growth of the pathogen (% diseased leaf area): at most 20%

## Cc1cc(C2=N[C@@H](C)[C@@H](C)N(C)c3ccccc32)cnc1C (racemic)
Alternaria solani
  growth of the pathogen (relative growth): up to 21%
Cercospora zeae maydis
  growth of the pathogen (relative growth): up to 17%

## Cc1cc(C2=NC3(CC3)CN(C)c3c(F)cccc32)cnc1C
Alternaria solani
  growth of the pathogen (relative growth): up to 21%
Cercospora beticula
  growth of the pathogen (relative growth): up to 18%
Cercospora zeae maydis
  growth of the pathogen (relative growth): up to 17%
Botrytis cinerea [1]; 125 ppm
  growth of the pathogen (% diseased leaf area): at most 22%

## Cc1cc(C2=NC(C)(C)C(C)(C)N(C)c3c(F)cccc32)cnc1C(F)F
Alternaria solani
  growth of the pathogen (relative growth): up to 21%
Pyricularia oryzae
  growth of the pathogen (relative growth): up to 22%
Botrytis cinerea [1]; 125 ppm
  growth of the pathogen (% diseased leaf area): at most 22%
Sclerotinia sclerotiorum
  growth of the pathogen (% diseased leaf area): at most 20%

## CSc1ccc2c(c1F)N(C)[C@H](C)[C@H](C)N=C2c1cnc(C(F)F)c(C)c1 (racemic)
Pyricularia oryzae
  growth of the pathogen (relative growth): up to 22%
Botrytis cinerea [1]; 125 ppm
  growth of the pathogen (% diseased leaf area): at most 22%

## CSc1ccc2c(c1F)N(C)[C@@H](C)[C@H](C)N=C2c1cnc(C(F)F)c(C)c1 (racemic)
Alternaria solani
  growth of the pathogen (relative growth): up to 21%
Pyricularia oryzae
  growth of the pathogen (relative growth): up to 22%
Botrytis cinerea [1]; 125 ppm
  growth of the pathogen (% diseased leaf area): at most 22%

## C=CCN1c2c(F)cccc2C(c2cnc(C(F)F)c(C)c2)=N[C@@H](C)[C@H]1C (racemic)
Cercospora beticula
  growth of the pathogen (relative growth): up to 18%
Cercospora zeae maydis
  growth of the pathogen (relative growth): up to 17%
Pyricularia oryzae
  growth of the pathogen (relative growth): up to 22%
Botrytis cinerea [1]; 125 ppm
  growth of the pathogen (% diseased leaf area): at most 22%

## Cc1cc(C2=N[C@@H](C)[C@H](C)N(C)c3c2ccc(F)c3F)cnc1C(F)F (racemic)
Alternaria solani
  growth of the pathogen (relative growth): up to 21%
Pyricularia oryzae
  growth of the pathogen (relative growth): up to 22%
Botrytis cinerea [1]; 125 ppm
  growth of the pathogen (% diseased leaf area): at most 22%
Sclerotinia sclerotiorum
  growth of the pathogen (% diseased leaf area): at most 20%

## CCN1C(=O)C(C)(C)N=C(c2cnc(C(F)F)c(C)c2)c2cccc(F)c21
Botrytis cinerea [2]
  growth of the pathogen (% diseased leaf area): at most 17%
Botrytis cinerea [1]; 250 ppm
  growth of the pathogen (% diseased leaf area): at most 13%

## Cc1cc(C2=NC(C)(C)C(=O)N(C(C)C)c3c(F)cccc32)cnc1C(F)F
Botrytis cinerea [2]
  growth of the pathogen (% diseased leaf area): at most 17%
Botrytis cinerea [1]; 250 ppm
  growth of the pathogen (% diseased leaf area): at most 13%

## Cc1cc(C2=N[C@@H](C)[C@@H](C)N(C)c3c(F)cccc32)cnc1C (racemic)
Alternaria solani
  growth of the pathogen (relative growth): up to 21%
Pyricularia oryzae
  growth of the pathogen (relative growth): up to 22%
Botrytis cinerea [1]; 125 ppm
  growth of the pathogen (% diseased leaf area): at most 22%

## CC#CCN1c2c(F)cccc2C(c2cnc(C(F)F)c(C)c2)=N[C@@H](C)[C@H]1C (racemic)
Botrytis cinerea [1]; 125 ppm
  growth of the pathogen (% diseased leaf area): at most 22%
Sclerotinia sclerotiorum
  growth of the pathogen (% diseased leaf area): at most 20%

## Cc1cc(C2=NC(C)CN(C)c3c(F)cccc32)cnc1C(F)F (stereo not drawn)
Alternaria solani
  growth of the pathogen (relative growth): up to 21%
Pyricularia oryzae
  growth of the pathogen (relative growth): up to 22%
Botrytis cinerea [1]; 125 ppm
  growth of the pathogen (% diseased leaf area): at most 22%
Sclerotinia sclerotiorum
  growth of the pathogen (% diseased leaf area): at most 20%

## Cc1cc(C2=NCC(C)(C)N(C)c3c(F)cccc32)cnc1C(F)F
Alternaria solani
  growth of the pathogen (relative growth): up to 21%
Pyricularia oryzae
  growth of the pathogen (relative growth): up to 22%
Botrytis cinerea [1]; 125 ppm
  growth of the pathogen (% diseased leaf area): at most 22%
Sclerotinia sclerotiorum
  growth of the pathogen (% diseased leaf area): at most 20%

## Cc1cc(C2=NC(C)C(C)N(C)c3c(Br)cccc32)cnc1C(F)F (stereo not drawn)
Alternaria solani
  growth of the pathogen (relative growth): up to 21%
Pyricularia oryzae
  growth of the pathogen (relative growth): up to 22%
Botrytis cinerea [1]; 125 ppm
  growth of the pathogen (% diseased leaf area): at most 22%

## CCCN1c2c(F)cccc2C(c2cnc(C(F)F)c(C)c2)=N[C@@H](C)[C@H]1C (racemic)
Cercospora zeae maydis
  growth of the pathogen (relative growth): up to 17%
Botrytis cinerea [1]; 125 ppm
  growth of the pathogen (% diseased leaf area): at most 22%
Sclerotinia sclerotiorum
  growth of the pathogen (% diseased leaf area): at most 20%

## Cc1cc(C2=N[C@@H](C)[C@H](C)N(C)c3c(F)cccc32)cnc1C (racemic)
Alternaria solani
  growth of the pathogen (relative growth): up to 21%
Pyricularia oryzae
  growth of the pathogen (relative growth): up to 22%
Botrytis cinerea [1]; 125 ppm
  growth of the pathogen (% diseased leaf area): at most 22%

## Cc1cc(C2=N[C@@H](C)[C@@H](C)N(C)c3c2ccc(F)c3F)cnc1C(F)F (racemic)
Alternaria solani
  growth of the pathogen (relative growth): up to 21%
Pyricularia oryzae
  growth of the pathogen (relative growth): up to 22%
Botrytis cinerea [1]; 125 ppm
  growth of the pathogen (% diseased leaf area): at most 22%
Sclerotinia sclerotiorum
  growth of the pathogen (% diseased leaf area): at most 20%

## C#CCN1c2c(F)cccc2C(c2cnc(C(F)F)c(C)c2)=N[C@@H](C)[C@H]1C (racemic)
Cercospora beticula
  growth of the pathogen (relative growth): up to 18%
Cercospora zeae maydis
  growth of the pathogen (relative growth): up to 17%
Botrytis cinerea [1]; 125 ppm
  growth of the pathogen (% diseased leaf area): at most 22%
Sclerotinia sclerotiorum
  growth of the pathogen (% diseased leaf area): at most 20%

## Cc1cc(C2=N[C@@H](C)CN(C)c3c(F)cccc32)cnc1C(F)F
Alternaria solani
  growth of the pathogen (relative growth): up to 21%
Cercospora zeae maydis
  growth of the pathogen (relative growth): up to 17%
Pyricularia oryzae
  growth of the pathogen (relative growth): up to 22%
Botrytis cinerea [1]; 125 ppm
  growth of the pathogen (% diseased leaf area): at most 22%
Sclerotinia sclerotiorum
  growth of the pathogen (% diseased leaf area): at most 20%

## Cc1cc(C2=NC3(CC3)C(C)N(C)c3c(F)cccc32)cnc1C (stereo not drawn)
Alternaria solani
  growth of the pathogen (relative growth): up to 21%
Cercospora beticula
  growth of the pathogen (relative growth): up to 18%
Cercospora zeae maydis
  growth of the pathogen (relative growth): up to 17%
Botrytis cinerea [1]; 125 ppm
  growth of the pathogen (% diseased leaf area): at most 22%

## Cc1cc(C2=NC3(CC3)C(C)N(C)c3c(F)cccc32)cnc1C(F)F (stereo not drawn)
Alternaria solani
  growth of the pathogen (relative growth): up to 21%
Cercospora beticula
  growth of the pathogen (relative growth): up to 18%

## COc1ccc2c(c1F)N(C)[C@@H](C)[C@H](C)N=C2c1cnc(C(F)F)c(C)c1 (racemic)
Alternaria solani
  growth of the pathogen (relative growth): up to 21%
Pyricularia oryzae
  growth of the pathogen (relative growth): up to 22%
Botrytis cinerea [1]; 125 ppm
  growth of the pathogen (% diseased leaf area): at most 22%

## C=CCN1c2c(F)cccc2C(c2cnc(C(F)F)c(C)c2)=N[C@@H](C)[C@@H]1C (racemic)
Cercospora beticula
  growth of the pathogen (relative growth): up to 18%
Botrytis cinerea [1]; 125 ppm
  growth of the pathogen (% diseased leaf area): at most 22%

## Cc1cc(C2=N[C@@H](C)[C@H](C)N(C)c3c(Cl)cccc32)cnc1C(F)F (racemic)
Alternaria solani
  growth of the pathogen (relative growth): up to 21%
Pyricularia oryzae
  growth of the pathogen (relative growth): up to 22%
Botrytis cinerea [1]; 125 ppm
  growth of the pathogen (% diseased leaf area): at most 22%
Sclerotinia sclerotiorum
  growth of the pathogen (% diseased leaf area): at most 20%
